Inhibition data for one molecule are collected here from PubChem BioAssay.

This is a selection; strong and weak results do not stand in their true shares. The source made the active and inactive calls. Rule as the data show it: active = inhibition above about 33%; inactive = the rest.

As a reminder, the inhibition is the relative decrease from the control value, in per cent.

The nature of the assay: VP16 transactivation reporter inhibitors, counter-screen for LRH-1 inverse agonist project, cell-based, luminescence, high throughput (AID 651615). The following applies: Gal4-VP16 luciferase reporter cells, at 3.6 µM, active compounds read high.

As for `O=[N+]([O-])c1cc([N+](=O)[O-])c(-c2cnn(-c3ccccc3)c2)c([N+](=O)[O-])c1`, the inhibition was inactive: -11%.
